Measured values from several laboratories, pooled; numbers as filed in NIAID ChemDB.

All rows: whole-cell or culture tests; agent: Cryptosporidium parvum; measure: EC50

Rows are shuffled and stem from different studies. a–b is a range or a potency band. An empty or dashed field is not shown. ECn is the concentration giving n% inhibition of infection, replication or growth.

{"compound": "Cc1ccc2c(c1)C(=O)c1c(cnn1C)C2=O", "value": "25–50 µM"}
{"compound": "Nc1ccc2c(SCc3ccc([N+](=O)[O-])cc3)c3ccccc3nc2c1", "value": ">10 µg/mL"}
{"compound": "CC[C@@H](C(=O)[C@@H](C)[C@@H](O)[C@H](C)CCc1ccc(C)c(O)c1C(=O)O)[C@H]1O[C@](CC)([C@H]2CC[C@](O)(CC)[C@H](C)O2)C[C@@H]1C", "cell line": "MDCK", "read by": "luminescence", "strain or isolate": "IOWA", "value": "0.4 µg/mL"}
{"compound": "O=[N+]([O-])c1ccc(Sc2c3ccccc3nc3cc(Cl)ccc23)cc1", "value": ">50 µg/mL"}
{"compound": "O=C1/C(=C/c2ccccc2)Oc2cc(O)ccc21", "value": ">50 µM"}
{"compound": "CCN(CC)CCSc1c2ccccc2nc2ccccc12", "value": ">50 µg/mL"}
{"compound": "CC(=O)Oc1cccc2c1C(=O)c1c(cnn1C)C2=O", "value": "10–25 µM"}
{"compound": "COc1cc(/C=C/C=C\\c2ccc3c(c2)OCO3)oc(=O)c1", "value": ">50 µM"}
{"compound": "CSc1c2ccccc2nc2ccccc12", "value": ">10 µg/mL"}
{"compound": "O=C(c1ccccc1)c1oc2cc(O)cc(Cc3ccccc3)c2c1O", "value": ">50 µM"}
{"compound": "Cn1ncc2c1C(=O)c1cccc(O)c1C2=O", "value": "10–25 µM"}
{"compound": "CC(=O)Oc1ccccc1C(=O)Nc1ncc([N+](=O)[O-])s1", "cell line": "A549", "value": "<8 µg/mL"}
{"compound": "O=C(c1ccccc1)c1oc2cc(O)cc(O)c2c1O", "value": ">50 µM"}
{"compound": "NC[C@@H]1O[C@H](O[C@H]2[C@@H](O)[C@H](O[C@@H]3[C@@H](O)[C@H](N)C[C@H](N)[C@H]3O[C@H]3O[C@H](CO)[C@@H](O)[C@H](O)[C@H]3N)O[C@@H]2CO)[C@H](N)[C@@H](O)[C@@H]1O", "cell line": "MDBK", "read by": "cell count", "value": "<250 µg/mL"}
{"compound": "COc1ccc(/C=C2\\Oc3cc(O)ccc3C2=O)cc1OC", "value": "<10 µM"}
{"compound": "CCSc1c2ccccc2nc2cc(N)ccc12", "value": ">1 µg/mL"}
{"compound": "COc1cc(/C=C/C=C\\c2ccccc2)oc(=O)c1C", "value": ">50 µM"}
{"compound": "CCSc1c2ccccc2nc2ccccc12", "value": ">10 µg/mL"}
{"compound": "C=C/C=C/c1cc(OC)cc(=O)o1", "value": "10–25 µM"}
{"compound": "Nc1ccc(CSc2c3ccccc3nc3cc(Cl)ccc23)cc1", "value": ">50 µg/mL"}
{"compound": "CC[C@@H](C(=O)[C@@H](C)[C@@H](O)[C@H](C)CCc1ccc(C)c(O)c1C(=O)O)[C@H]1O[C@](CC)([C@H]2CC[C@](O)(CC)[C@H](C)O2)C[C@@H]1C", "cell line": "A549", "value": "0.5–2 µg/mL"}

Again, the opening 2 rows:

compound,cell line,read by,strain or isolate,value
Cc1ccc2c(c1)C(=O)c1c(cnn1C)C2=O,-,-,-,25–50 µM
Nc1ccc2c(SCc3ccc([N+](=O)[O-])cc3)c3ccccc3nc2c1,-,-,-,>10 µg/mL